Measured values from several laboratories, pooled; numbers as filed in NIAID ChemDB.

Common to all: growth or infection tests

ECn: concentration that inhibits the pathogen or its effect by n%. Blank or dashed fields: not listed here. Neighbouring rows are from separate reports. Inhibition is in % at the dose shown (toxicity tests: loss of growth or viability).

| smiles | strain or isolate | measure | organism | cell line | dose | result |
|---|---|---|---|---|---|---|
| N=c1ncn(Cc2ccc(Cl)cc2Cl)c2nc[nH]c12 | - | inhibition | Vaccinia virus | BSC-1 | 12 µg/mL | 0% |
| Cn1cc(NC(=O)c2cc(NC(=O)c3cc(NC=O)cn3C)cn2C)cc1C(=O)NCCC(=N)N | Noguchi | inhibition | Vaccinia virus | BSC-1 | 100 µg/mL | 100% |
| CCC(=O)c1ccc2c(c1)Sc1ccccc1O2 | TYPE 3 | inhibition | Poliovirus | BSC-1 | 10 µg/mL | 100% |
| Nc1ncnc2c1ncn2C[C@@H](CO)OCP(=O)(O)O | - | EC50 | Monkeypox virus | LLC-MK2 | - | 9.2 µg/mL |
| CC[C@@H](C(C)C)[C@H](O)[C@@H](O)[C@@H](C)[C@H]1CC[C@H]2[C@@H]3CC(=O)[C@@]4(O)C[C@@H](Br)CC[C@]4(C)[C@H]3CC[C@]12C | IV4454 | EC90 | Junin virus | VERO | - | 12.6 µM |
| CCn1cnc(=N)c2[nH]cnc21 | - | inhibition | Vaccinia virus | BSC-1 | 50 µg/mL | 0% |
| CC[C@@H](C(C)C)[C@H](O)[C@@H](O)[C@@H](C)[C@H]1CC[C@H]2[C@@H]3CC(=O)[C@H]4C[C@@H](Br)CC[C@]4(C)[C@H]3CC[C@]12C | IV4454 | EC90 | Junin virus | VERO | - | 19.1 µM |
| O=c1[nH]cnc2c1ncn2[C@@H]1C=C(CO)[C@@H](O)[C@H]1O | 7124 | EC50 | Variola virus | VERO | - | >100 µg/mL |
| CC(=O)N[C@H]1[C@H]([C@H](O)[C@H](O)CO)OC(C(=O)O)=C[C@@H]1N=C(N)N | H5N8 A/DK/IRE/83 | EC50 | Influenza A virus | MDCK | - | 0.0033 µM |
| Nc1nccc2c1ncn2[C@@H]1O[C@H](CO)[C@@H](O)[C@H]1O | - | inhibition | Newcastle disease virus | Chick embryo cells | 100 µM | 33.6% |
| C/C(=N\O)c1ccc2c(c1)Sc1ccccc1S2 | TYPE 3 | inhibition | Poliovirus | BSC-1 | 10 µg/mL | 61% |
| CN[C@H]1C[C@@H](n2cnc3c(N)ncnc32)[C@H](O)[C@@H]1O | - | EC50 | Venezuelan equine encephalitis virus | HFF | - | >100 µg/mL |
| CC[C@@H](C(C)C)[C@H](O)[C@@H](O)[C@@H](C)[C@H]1CC[C@H]2[C@@H]3CC(=O)[C@H]4C[C@H](O)[C@H](O)C[C@]4(C)[C@H]3CC[C@]12C | IV4454 | EC90 | Junin virus | VERO | - | 10 µM |
| Cc1ccc(NC(=S)N=Nc2c(O)[nH]c3ccc([N+](=O)[O-])cc23)cc1 | - | EC50 | Yellow fever virus | VERO | - | 1.96 µg/mL |
| Clc1ccc(C2COc3ccccc3C2)cc1 | SABIN (TYPE 2) | EC50 | Poliovirus | HEP-2 | - | >10 µM |
| CC(=O)c1ccc(Oc2ccccc2)cc1 | TYPE 3 | inhibition | Poliovirus | BSC-1 | 2 µg/mL | 100% |
| O=C1Nc2ccc([N+](=O)[O-])cc2/C1=N/N=C1/SCC(=O)N1c1ccc(Br)cc1 | - | EC50 | Yellow fever virus | VERO | - | >20 µg/mL |
| Nc1ccn(C[C@H]2COP(=O)(O)CO2)c(=O)n1 | Isolate Brazil Garcia | EC50 | Variola virus | LLC-MK2 | - | 5.9 µg/mL |
| Clc1ccc(C2CCc3ccccc3O2)c(Cl)c1 | IA (TYPE 2) | inhibition | Poliovirus | HEP-2 | 10 µM | 31% |
| Nc1nc(=O)n([C@@H]2C=C(CO)[C@@H](O)[C@H]2O)cc1Br | ZAIRE | EC50 | Monkeypox virus | - | - | >100 µg/mL |
| Clc1ccc(C2=Cc3ccccc3OC2)cc1 | IA (TYPE 2) | inhibition | Poliovirus | HEP-2 | 10 µM | 70% |
| Nc1ncnc2c1ncn2[C@@H]1C=C(CO)[C@@H](O)[C@H]1O | 7124 | EC50 | Variola virus | MK2 | - | 0.1 µg/mL |
| COc1ccc(-c2cc(N(C)C)no2)c(O)c1 | - | EC50 | African swine fever virus | VERO | - | >427 µM |
| Cn1cc(NC(=O)c2cc(NC(=O)c3cc([N+](=O)[O-])cn3C)cn2C)cc1C(=O)NCCC(=N)N | Noguchi | inhibition | Vaccinia virus | BSC-1 | 50 µg/mL | 0% |
| CN(C)c1cc(-c2ccc(O)cc2O)on1 | - | EC50 | African swine fever virus | VERO | - | >227 µM |
| CC(O)c1ccc2c(c1)Sc1cc(C(C)O)ccc1O2 | TYPE 3 | inhibition | Poliovirus | BSC-1 | 0.4 µg/mL | 21% |
| c1ccc(C2COc3ccccc3C2)cc1 | II (TYPE 2) | EC50 | Poliovirus | HEP-2 | - | >10 µM |
| CC(O)c1cccc(Cc2ccccc2)c1 | TYPE 3 | inhibition | Poliovirus | BSC-1 | 0.4 µg/mL | 22% |
| Nc1nc(=O)n([C@@H]2C=C(CO)[C@@H](O)[C@H]2O)cc1I | Bangladesh 1975 | EC50 | Variola virus | - | - | 10.4 µg/mL |
| N=c1ncn(CC2CCCCC2)c2nc[nH]c12 | - | inhibition | Vaccinia virus | BSC-1 | 12 µg/mL | 0% |
| O=C1Nc2ccc([N+](=O)[O-])cc2/C1=N/N=C1/SCC(=O)N1c1ccc(Cl)cc1 | - | EC50 | Yellow fever virus | VERO | - | 1.52 µg/mL |
| CC[C@@H](C(C)C)[C@@H](O)[C@H](O)[C@@H](C)[C@H]1CC[C@H]2[C@@H]3CC(=O)[C@H]4C[C@H](O)[C@H](O)C[C@]4(C)[C@H]3CC[C@]12C | XJCI3 | EC50 | Junin virus | VERO | - | 1.5 µM |
| CCCCN1C(=O)CS/C1=N/N=C1\C(=O)Nc2ccc([N+](=O)[O-])cc21 | - | EC50 | Yellow fever virus | VERO | - | >100 µg/mL |
| Nc1ccn(C[C@@H](CO)OCP(=O)(O)O)c(=O)n1 | Isolate V70-46 | EC50 | Variola virus | VERO | - | 7 µg/mL |
| CCCCn1cnc(=N)c2[nH]cnc21 | - | inhibition | Vaccinia virus | BSC-1 | 100 µg/mL | 1% |
| CCCCNC(=S)N=Nc1c(O)[nH]c2ccc([N+](=O)[O-])cc12 | - | EC50 | Yellow fever virus | VERO | - | <0.8 µg/mL |
| CCOc1ccc(-c2cc(N3CCCCC3)no2)c(O)c1 | - | EC50 | African swine fever virus | VERO | - | >347 µM |
| CC(=O)c1ccc2c(c1)Sc1ccccc1O2 | TYPE 3 | inhibition | Poliovirus | BSC-1 | 0.4 µg/mL | 99% |
| Cc1cccc(Cn2cnc(=N)c3[nH]cnc32)c1 | - | inhibition | Vaccinia virus | BSC-1 | 50 µg/mL | 0% |
| C#CCOc1cc(OC)ccc1-c1cc(N(CC)CC)no1 | - | EC50 | African swine fever virus | VERO | - | >40 µM |

4 of the rows above, restated:

smiles | strain or isolate | measure | organism | cell line | dose | result
O=C1Nc2ccc([N+](=O)[O-])cc2/C1=N/N=C1/SCC(=O)N1c1ccc(Cl)cc1 | - | EC50 | Yellow fever virus | VERO | - | 1.52 µg/mL
Clc1ccc(C2=Cc3ccccc3OC2)cc1 | IA (TYPE 2) | inhibition | Poliovirus | HEP-2 | 10 µM | 70%
Nc1nc(=O)n([C@@H]2C=C(CO)[C@@H](O)[C@H]2O)cc1I | Bangladesh 1975 | EC50 | Variola virus | - | - | 10.4 µg/mL
O=c1[nH]cnc2c1ncn2[C@@H]1C=C(CO)[C@@H](O)[C@H]1O | 7124 | EC50 | Variola virus | VERO | - | >100 µg/mL